Anti-infective test results gathered from many reports (values: NIAID ChemDB through PubChem).

All rows: tests in culture; species: HIV-1; cell line: MT-2; measure: EC50

Neighbouring rows are from separate reports. ECn is the concentration giving n% inhibition of infection, replication or growth. Blank or dashed fields: not listed here. Two numbers with a dash give a range or band.

structure | method | strain or isolate | setting | mutations | value
CC(C)C1=C2[C@H]3CC[C@@H]4[C@@]5(C)CC[C@H](OC(=O)[C@H]6C[C@@H](C(=O)O)C6(C)C)C(C)(C)[C@@H]5CC[C@@]4(C)[C@]3(C)CC[C@@]2(CC(=O)NCc2ccc(Cl)cc2OCCN(C)C)CC1=O | p24 / ELISA | 92HT599 | - | - | <1 µM
CCCc1cc(=O)oc2c3c(c4c(c12)OC(C)(C)C=C4)O[C@H](CC)[C@H](C)[C@H]3O | cytopathic effect / MTT | - | - | - | >11.6 µM
O=C1CSC(c2ccccn2)N1c1ccc(Cl)cn1 | MTT | IIIB | - | - | 0.108 µM
Cc1cn([C@@H]2O[C@H](CO)[C@@H](CN=[N+]=[N-])[C@H]2O)c(=O)[nH]c1=O | cytopathic effect / MTT | IIIB | - | - | >100 µM
Nc1nc(NC2CC2)c2ncn([C@H]3C=C[C@@H](CO)C3)c2n1 | cytopathic effect / XTT | HXB2D (RT K70E recombinant) | - | RT-K70E | 0.7 µM
CC(C)C1=C2[C@H]3CC[C@@H]4[C@@]5(C)CC[C@H](OC(=O)[C@H]6C[C@@H](C(=O)O)C6(C)C)C(C)(C)[C@@H]5CC[C@@]4(C)[C@]3(C)CC[C@@]2(CC(=O)NC2(CNC(=O)c3ccc(Cl)cc3)CNC2)CC1=O | p24 / ELISA | 92HT599 | - | - | <1 µM
O=c1ccn2cnc3c(ncn3[C@@H]3O[C@H](CO)[C@@H](O)[C@H]3O)c2n1 | RT activity | LAV-1 | - | - | >1500 µM
CC(C)C1=C2[C@H]3CC[C@@H]4[C@@]5(C)CC[C@H](OC(=O)[C@H]6C[C@@H](C(=O)O)C6(C)C)C(C)(C)[C@@H]5CC[C@@]4(C)[C@]3(C)CC[C@@]2(CC(=O)NCC2(N)COC2)CC1=O | p24 / ELISA | 92HT599 | - | - | <1 µM
Cc1cn([C@H]2C[C@H](CF)[C@@H](CO)O2)c(=O)[nH]c1=O | cytopathic effect / MTT | IIIB | - | - | >100 µM
CC(C)CN(C[C@@H](O)[C@H](Cc1ccccc1)NC(=O)[C@@H](NC(=O)CNC(C)(C)c1cccc(F)c1)C(C)C)S(=O)(=O)c1ccc2ncccc2c1 | - | RF | - | - | <1 µM
Nc1ncnc2c1ncn2[C@@H]1C[C@H](CO)[C@@H]1CO | cytopathic effect | IIIB | - | - | >200 µM
CC(C)c1ccccc1-c1ccc2c(=O)n(-c3ccc(Cl)c4c(NS(C)(=O)=O)nn(C)c34)c([C@H](Cc3cc(F)cc(F)c3)NC(=O)Cn3nc(C(F)F)c4c3C(F)(F)[C@@H]3C[C@H]43)nc2c1 | luciferase | NL4-3 | - | - | 0.0022 µM
Cc1c(N)cccc1C(=O)N[C@@H](Cc1ccccc1)[C@@H](O)CN1C[C@H]2CCCC[C@H]2C[C@H]1C(=O)NC(C)(C)C | cytopathic effect / MTT | RF | - | - | 0.243 µg/mL
CNC(=O)NC[C@H]1O[C@@H](n2cnc3c(NC(=O)Nc4ccccc4)ncnc32)[C@@H]2OC(=O)C[C@@H]21 | cytopathic effect / neutral red | LAI | - | - | >34 µM
O=c1[nH]c(=O)n([C@H]2C=C[C@@H](OCP(=O)(O)O)O2)cc1Cl | cytopathic effect / XTT | IIIB | - | - | 13–27 µg/mL
CC(C)CN(C[C@@H](O)[C@H](Cc1ccccc1)NC(=O)[C@@H](NC(=O)CNC(C)(C)c1ccccc1)C(C)(C)C)S(=O)(=O)c1ccc2ncccc2c1 | - | RF | - | - | <1 µM
COc1cc([N+](=O)[O-])c(S(=O)(=O)[O-])cc1N=N/C(=N\Nc1cc(S(=O)(=O)[O-])c([N+](=O)[O-])cc1OC)C(=O)Nc1ccccc1 | p24 | IIIB X4 | - | - | 23.59 µM
O=c1[nH]c(=O)n([C@H]2C=C[C@@H](OCP(=O)(O)O)O2)cc1I | cytopathic effect / XTT | IIIB | - | - | >100 µg/mL
CC(C)(C)NC(=O)[C@@H]1C[C@@H]2CCCC[C@@H]2CN1C[C@H](O)[C@H](Cc1ccccc1)NC(=O)c1cccc(Cl)c1Cl | cytopathic effect / MTT | RF | - | - | 1.45 µg/mL
Cc1ncc(-c2ccc(OCCOC(C)(C)C)cn2)c(N2CCC3(CCCC3)CC2)c1[C@H](OC(C)(C)C)C(=O)O | luminescence | NL4-3 | - | - | 5 µM
CC(CO)n1cnc2c(Cl)nc(N)nc21 | RT activity | LAV-1 | - | - | >100 µM
C[Si](O)(O[Si](C)(CCCn1cnc2c(N)ncnc21)c1ccccc1)c1ccccc1 | RT activity | IIIB | - | - | 14 µM
Cn1nc(NS(C)(=O)=O)c2c(Cl)ccc(-n3c([C@H](Cc4cc(F)cc(F)c4)NC(=O)Cn4nc(C(F)F)c5c4C(F)(F)[C@@H]4C[C@H]54)nc4nc(-c5cccnc5)ccc4c3=O)c21 | luciferase | NL4-3 | - | - | 0.000055 µM
CC(C)(C)NC(=O)[C@@H]1C[C@@H]2CCCC[C@@H]2CN1C[C@H](O)[C@H](Cc1ccccc1)NC(=O)c1c(Cl)ccc(O)c1Cl | cytopathic effect / MTT | RF | - | - | 7.19 µg/mL
CC(C)C1=C2[C@H]3CC[C@@H]4[C@@]5(C)CC[C@H](OC(=O)[C@H]6C[C@@H](C(=O)O)C6(C)C)C(C)(C)[C@@H]5CC[C@@]4(C)[C@]3(C)CC[C@@]2(CC(=O)NCC(C)(C)NC(=O)c2ccc(N3CCN(C)CC3)cc2)CC1=O | p24 / ELISA | 92HT599 | - | - | <1 µM
Cc1cc(-c2ccc(C#N)cc2)cc(Cl)c1Oc1nc(Nc2ccc(C#N)cc2)nc2ccsc12 | MTT | IIIB | - | Y181C | 0.0487 µM
Nc1ccn([C@H]2CC[C@@H](CO)O2)c(=O)n1 | cytopathic effect / trypan blue | LAV | - | - | <1 µM
Cc1ccc(S(=O)(=O)N(CC(C)C)C[C@@H](O)[C@H](Cc2ccccc2)NC(=O)[C@@H](NC(=O)CNC(C)(C)c2cccc(F)c2)C(C)(C)C)cc1N | - | RF | - | - | <1 µM
O=c1cc(CCl)nc2c3ncn([C@@H]4O[C@H](COP(=O)(O)O)[C@@H](O)[C@H]4O)c3ncn12 | RT activity | LAV-1 | - | - | >200 µM
Cc1cn([C@@H]2O[C@H](CO)[C@@H](CN=[N+]=[N-])[C@@H]2O)c(=O)[nH]c1=O | cytopathic effect / MTT | IIIB | - | - | >100 µM
CCC1(C)CCN(c2c(-c3ccc(OCCOC(C)C)cn3)cnc(C)c2[C@H](OC(C)(C)C)C(=O)O)CC1 | luminescence | NL4-3 | - | - | 2.9 µM
COc1ccc2c(c1)C1(c3ccccc3)SCCN1C2=O | cytopathic effect / MTT | - | - | - | 1.18 µM
CCC1(C)CCN(c2c(-c3ccc(OCCOc4ccccc4Cl)cn3)cnc(C)c2[C@H](OC(C)(C)C)C(=O)O)CC1 | luminescence | NL4-3 | - | - | 7.1 µM
CCCc1cc(=O)oc2c3c(c4c(c12)OC(C)(C)C=C4)O[C@@H](C)C(C)=C3 | cytopathic effect / MTT | - | - | - | >24.7 µM
Cn1nc(NS(C)(=O)=O)c2c(Cl)ccc(-n3c([C@H](Cc4cc(F)cc(F)c4)NC(=O)Cn4nc(C(F)F)c5c4C(F)(F)[C@@H]4C[C@H]54)nc4nc(-c5cc(C(F)(F)F)cc(C(F)(F)F)n5)ccc4c3=O)c21 | luciferase | NL4-3 | - | - | 0.000025 µM
NS(=O)(=O)c1ccc(N2C(=O)CSC2c2ccccc2Cl)cc1 | MTT | IIIB | - | - | 8.153 µM
Nc1c(-c2nccc(=O)[nH]2)ncn1[C@@H]1O[C@H](CO)[C@@H](O)[C@H]1O | RT activity | LAV-1 | - | - | >1500 µM
CC(C)CN(C[C@@H](O)[C@H](Cc1ccccc1)NC(=O)[C@@H](NC(=O)[C@@H](C)NC(C)(C)c1ccccc1)C(C)(C)C)S(=O)(=O)c1ccc2ncsc2c1 | - | RF | - | - | <1 µM
Cc1ncc(-c2ccc(OCCc3ccc(F)cc3)cn2)c(N2CCC3(CCCCC3)C2)c1[C@H](OC(C)(C)C)C(=O)O | luminescence | NL4-3 | - | - | 3.8 µM
[N-]=[N+]=NC[C@H]1O[C@@H](n2cnc3c(N)ncnc32)[C@H](O)[C@@H]1CC(=O)O | cytopathic effect / neutral red | LAI | - | - | >62 µM
Nc1ncnc2c1ncn2[C@@H]1O[C@H](OCP(=O)(O)O)C=C1F | cytopathic effect | - | - | RT-K65R | 14.76 µM
COc1ccc(OC)c(C2SCC(=O)N2c2ccccn2)c1 | MTT | IIIB | - | - | 1.064 µM
Nc1ncc2ncn(CCO)c2n1 | RT activity | LAV-1 | - | - | >100 µM
CC(C)C1=C2[C@H]3CC[C@@H]4[C@@]5(C)CC[C@H](OC(=O)[C@H]6C[C@@H](C(=O)O)C6(C)C)C(C)(C)[C@@H]5CC[C@@]4(C)[C@]3(C)CC[C@@]2([C@@H](O)CNCc2ccc(OCCN3CCOCC3)cc2)CC1=O | p24 / ELISA | 92HT599 | - | - | <1 µM
Cc1ncc(-c2ccc(OCC3CCC3)cn2)c(N2CCC3(CCCC3)CC2)c1[C@H](OC(C)(C)C)C(=O)O | luminescence | NL4-3 | - | - | 14.5 µM
N#Cc1ccc(Nc2nc(Oc3ccc(-c4ccc(C#N)cc4)c(F)c3F)c3sccc3n2)cc1 | MTT | IIIB | - | Y181C | 0.0582 µM
Nc1ncn([C@H]2C[C@H](O)[C@@H](CO)O2)c(=O)n1 | - | LAI | - | - | 0.003 µM
CC1=C(C(=O)Nc2cc(C(=O)OC(C)C)c(Cl)cc2F)SCCO1 | cytopathic effect / XTT | IIIB | - | - | 0.0032 µg/mL
CCCc1cc(=O)oc2c3c(c4c(c12)OC(C)(C)C=C4)O[C@H](CC)[C@@H](C)C3=O | cytopathic effect / MTT | - | - | - | >6.8 µM
COC(=O)[C@H](Cc1ccccc1)NC(=O)[C@H]1/C(=C/CO)O[C@@H]2CC(=O)N21 | cytopathic effect / XTT | IIIB | - | - | 68 µg/mL
CC(C)CN(C[C@@H](O)[C@H](Cc1ccccc1)NC(=O)[C@@H](NC(=O)CNC(C)(C)c1cc(F)cc(F)c1)C(C)(C)C)S(=O)(=O)c1ccc(N)cc1 | - | RF | - | - | <1 µM
C[Si](C)(CCCSc1nc2cc(Cl)ccc2s1)O[Si](C)(C)CCCSc1nc2cc(Cl)ccc2s1 | MTT | IIIB | - | - | 11 µM
CC(C)(CN1CCCCC1)NC(=O)[C@]12CC[C@@H](C3(C)CC3)[C@@H]1[C@H]1CC[C@@H]3[C@@]4(C)CC[C@H](OC(=O)CC(C)(C)C(=O)O)C(C)(C)[C@@H]4CC[C@@]3(C)[C@]1(C)CC2 | p24 | 92HT599 | 40% human serum | - | 0.05–0.1 µM
Nc1ccn([C@H]2CC[C@@H](CO)O2)c(=O)n1 | cytopathic effect / XTT | IIIB | - | - | 0.13–0.79 µg/mL
COc1cccc(OC)c1C1SCC(=O)N1c1ncccc1C | MTT | IIIB | - | - | 21.1 µM
N#Cc1ccc(Nc2nc(Oc3c(F)cc(-c4ccc(C#N)cc4)cc3F)c3sccc3n2)cc1 | MTT | IIIB | - | Y181C | 0.1206 µM
CCCc1cc(=O)oc2c3c(c4c(c12)OC(C)(C)C=C4)O[C@H](C)[C@@H](C)/C3=N/O | cytopathic effect / MTT | - | - | - | >15.8 µM
Nc1nc2c(ncn2C2CC(CO)(CO)C2)c(=O)[nH]1 | cytopathic effect | IIIB | - | - | >200 µM
CCCCCC1=NN(C(=O)CCOC(C)=O)OC(CCCCC)C1 | luciferase | NL4-3 | - | - | 0.084 µM
CC(C)C1=C2[C@H]3CC[C@@H]4[C@@]5(C)CC[C@H](OC(=O)[C@H]6C[C@@H](C(=O)O)C6(C)C)C(C)(C)[C@@H]5CC[C@@]4(C)[C@]3(C)CC[C@@]2(CC(=O)NCCN2CCOCC2)CC1=O | p24 / ELISA | 92HT599 | - | - | <1 µM
Cc1ncc(-c2ccc(OCC(C)C)cn2)c(N2CCC(C)(C(C)C)CC2)c1[C@H](OC(C)(C)C)C(=O)O | luminescence | NL4-3 | - | - | 43.1 µM
O=[N+]([O-])c1ccc(/C=N/Nc2ccnc3c(C(F)(F)F)cc(Cl)cc23)o1 | cytopathic effect / MTT | RF | - | - | 0.0243 µg/mL
Cc1ncc(-c2ccc(OCCOC3CCCC3)cn2)c(N2CCC3(CCCC3)CC2)c1[C@H](OC(C)(C)C)C(=O)O | luminescence | NL4-3 | - | - | 2.3 µM
CCCc1cc(=O)oc2c3c(c4c(c12)OC(C)(C)C=C4)O[C@H](C)C(C)(C)C3=O | cytopathic effect / MTT | - | - | - | >19.3 µM
CC(C)CN(C[C@@H](O)[C@H](Cc1ccccc1)NC(=O)[C@@H](NC(=O)CNC(C)(C)c1cccc(F)c1)C(C)(C)C)S(=O)(=O)c1ccc2ncccc2c1 | - | RF | - | - | <1 µM
CC(C)C1=C2[C@H]3CC[C@@H]4[C@@]5(C)CC[C@H](OC(=O)[C@H]6C[C@@H](C(=O)O)C6(C)C)C(C)(C)[C@@H]5CC[C@@]4(C)[C@]3(C)CC[C@@]2(CC(=O)NCc2ccc(CN3CCC(O)CC3)cc2)CC1=O | p24 / ELISA | 92HT599 | - | - | <1 µM
CCC1(C)CCN(c2c(-c3ccc(OCCc4ccc(F)cc4)cn3)cnc(C)c2[C@H](OC(C)(C)C)C(=O)O)CC1 | luminescence | NL4-3 | - | - | 0.6 µM

Repeating the final 6 entries:

structure,method,strain or isolate,setting,mutations,value
O=[N+]([O-])c1ccc(/C=N/Nc2ccnc3c(C(F)(F)F)cc(Cl)cc23)o1,cytopathic effect / MTT,RF,-,-,0.0243 µg/mL
Cc1ncc(-c2ccc(OCCOC3CCCC3)cn2)c(N2CCC3(CCCC3)CC2)c1[C@H](OC(C)(C)C)C(=O)O,luminescence,NL4-3,-,-,2.3 µM
CCCc1cc(=O)oc2c3c(c4c(c12)OC(C)(C)C=C4)O[C@H](C)C(C)(C)C3=O,cytopathic effect / MTT,-,-,-,>19.3 µM
CC(C)CN(C[C@@H](O)[C@H](Cc1ccccc1)NC(=O)[C@@H](NC(=O)CNC(C)(C)c1cccc(F)c1)C(C)(C)C)S(=O)(=O)c1ccc2ncccc2c1,-,RF,-,-,<1 µM
CC(C)C1=C2[C@H]3CC[C@@H]4[C@@]5(C)CC[C@H](OC(=O)[C@H]6C[C@@H](C(=O)O)C6(C)C)C(C)(C)[C@@H]5CC[C@@]4(C)[C@]3(C)CC[C@@]2(CC(=O)NCc2ccc(CN3CCC(O)CC3)cc2)CC1=O,p24 / ELISA,92HT599,-,-,<1 µM
CCC1(C)CCN(c2c(-c3ccc(OCCc4ccc(F)cc4)cn3)cnc(C)c2[C@H](OC(C)(C)C)C(=O)O)CC1,luminescence,NL4-3,-,-,0.6 µM